Some results come without the dose or concentration used.
System: 3D7 schizont-stage transcriptome
Assay: RNA-seq of schizont-stage 3D7 after treatment
Assay type: cell-based, Plasmodium falciparum
Conditions: 3D7 at the schizont stage

Q: With `Cl.Cn1cc(CN2CCC3(CCN(c4ncc(C(=O)NO)cn4)C3)C2)c2cc(C#N)ccc21` (centres unmarked) [JX21108] as the compound, how does the “genes downregulated after treatment” value read?
A: 505 genes

Q: And the “genes upregulated after treatment” value?
A: 837 genes

— paper PMC7733455, “A novel multistage antiplasmodial inhibitor targeting Plasmodium falciparum histone deacetylase 1” (Cell Discovery, 2020)
